Target: mouse angiotensin-converting enzyme 2 (mACE2) (mouse) (UniProt Q8R0I0)
Assay: SPR

S1 (B.1.1.7) of SARS-CoV-2 spike protein (domain or fragment)
Kd: 2220 nM
